Experimental data published in article PMC10694151, “Regulation of the cell division hydrolase RipC by the FtsEX system in Mycobacterium tuberculosis” (Nature Communications, 2023).

System: Nc1ncnc2c1ncn2[C@@H]1O[C@H](COP(=O)(O)OP(=O)(O)OP(=O)(O)O)[C@@H](O)[C@H]1O
Experiment: purified protein
Details: pH 8.0; 37.0 °C

“MtbFtsEX (Mycobacterium tuberculosis H37Rv)” showed a Km of 200 ± 40 µM.

With “MtbFtsEX/RipC (Mycobacterium tuberculosis H37Rv)” the Km was 160 ± 40 µM.
